{"source": "paper PMC5802825", "about": "“Legionella DotM structure reveals a role in effector recruiting to the Type 4B secretion system” (2018)", "target": "DotM153 (DotM residues 153–380), wild type (L. pneumophila)", "experiment": "SEC-MALS; DotM153 in solution; conditions not given"}
{"substance": "DotM153 (DotM residues 153–380), wild type (domain or fragment)", "values": [{"measurement": "stoichiometry N", "result": 2}]}
